Results of unrelated studies side by side (data: NIAID ChemDB).

Common to all: whole-cell or culture tests; organism: HIV-1

Rows are shuffled and stem from different studies. Inhibition is in % at the dose shown (toxicity tests: loss of growth or viability). Blank or dashed fields: not listed here. Fold resistance has wild type as its base. ECn is the concentration giving n% inhibition of infection, replication or growth.

structure	strain	mutations	cell line	read by	setting	measure	tested at	value
CC(C)CN(C[C@@H](O)[C@H](Cc1ccccc1)NC(=O)O[C@H]1CCOC1)S(=O)(=O)c1ccc(N)cc1	NL4-3	PR-D30N	MT-4	p24	-	EC90	-	0.02 µM
CCOc1cccc(Cc2cc(C3CCN(C[C@H]4CN([C@@H](C(=O)O)[C@H](C)CC)C[C@@H]4c4cccc(F)c4)CC3)n(CC)n2)c1	BaL	-	HeLa	β-galactosidase	-	EC90	-	<0.00014 µM
CC(C)CN(C[C@@H](O)[C@H](Cc1ccccc1)NC(=O)[C@H](CC(N)=O)NC(=O)c1ccc2ccccc2n1)C(=O)NC(C)(C)C	NL4-3	PR-L10R L63P V82T I84V	MT-4	p24	-	EC95	-	0.8 µM
CCn1nc(Cc2ccc(OC(C)(C)C)cc2)cc1C1CCN(C[C@H]2CN([C@@H](C(=O)O)C(C)C)C[C@@H]2c2cccc(F)c2)CC1	BaL	-	HeLa	β-galactosidase	-	EC90	-	<0.00014 µM
CC(=O)N1CCC(C(=O)N(CCCN2CCC(Cc3ccc(C(N)=O)cc3)CC2)c2ccc(C)c(Cl)c2)CC1	R5 subtype C_2 recombinant	-	U87 (CD4+ CCR5+) + U87	luciferase	-	EC50	-	0.0074 µM
CCn1nc(Cc2ccc(C(C)C)cc2)cc1C1CCN(C[C@H]2CN([C@@H](C(=O)O)C(C)(C)C)C[C@@H]2c2cccc(F)c2)CC1	BaL	-	HeLa	β-galactosidase	50% human serum	EC90	-	0.033 µM
Cc1cn([C@H]2C[C@H](N=[N+]=[N-])[C@@H](CO)O2)c(=O)[nH]c1=O	NL4-3 WT	-	HeLa	luciferase	-	EC50	-	0.0608 µM
Cc1cn([C@H]2C[C@H](N=[N+]=[N-])[C@@H](CO)O2)c(=O)[nH]c1=O	-	L74V	Primary T lymphocytes	p24 / ELISA	-	EC90	-	0.2 µM
O=C1N(Cc2ccc(CO)cc2)[C@H](Cc2ccccc2)[C@H](O)[C@@H](O)[C@@H](Cc2ccccc2)N1Cc1ccc(CO)cc1	Clinical isolate N	-	PBMC	p24	-	inhibition	0.05 µM	90%
O=c1[nH]cnc2c1ncn2[C@H]1CC[C@@H](CO)O1	HXB2	RT-L74V	HT4 + HT4 LacZ-1	plaque count	-	EC50	-	11.2 µM
Nc1nc(=O)n([C@@H]2CS[C@H](CO)O2)cc1F	-	L74V	Primary T lymphocytes	p24 / ELISA	-	EC90	-	1.3 µM
Cc1cc(S(N)(=O)=O)ccc1NC(=O)COc1ccc(Cl)cc1C(=O)c1cc(Cl)cc(C#N)c1	NNRTI-resistant (RT K101E)	RT-K101E	MAGI	β-galactosidase	-	fold resistance	-	1.85
CC(C)(C)NC(=O)[C@@H]1C[C@@H]2CCCC[C@@H]2CN1C[C@@H](O)[C@H](Cc1ccccc1)NC(=O)[C@H](CC(N)=O)NC(=O)c1ccc2ccccc2n1	NL4-3	PR-L10R M46I V82T	MT-4	p24	-	EC95	-	0.025 µM
CCOc1cccc(Cc2cc(C3CCN(C[C@H]4CN([C@@H](C(=O)O)[C@@H](C)CC)C[C@@H]4c4cccc(F)c4)CC3)n(CC)n2)c1	BaL	-	HeLa	β-galactosidase	50% human serum	EC90	-	0.1 µM
Cc1ccnc2c1NC(=O)c1cccnc1N2C1CC1	-	RT-D67N K70R T215Y K219Q K103N	MT-4	-	-	EC95	-	>3 µM
N#CC[C@H](C1CCCC1)n1cc(-c2ncnc3[nH]ccc23)cn1	-	L74V	Primary T lymphocytes	p24 / ELISA	-	EC90	-	3.2 µM
O=c1[nH]cnc2c1ncn2[C@H]1CC[C@@H](CO)O1	Recombinant	RT-V118I M184V	HeLa	luciferase	-	fold resistance	-	2.2
CCn1nc(Cc2ccc3c(c2)OCO3)cc1C1CCN(C[C@H]2CN([C@@H](C(=O)O)C(C)(C)C)C[C@@H]2c2cccc(F)c2)CC1	BaL	-	HeLa	β-galactosidase	50% human serum	EC90	-	0.033 µM
c1cc(CN2CCCNCCNCCCNCC2)ccc1CN1CCCNCCNCCCNCC1	92US077 CLADE B R5X4	-	PBMC	p24	-	inhibition	0.5 µM	99%
CCCOc1ccc(Cc2cc(C3CCN(C[C@H]4CN([C@@H](C(=O)O)[C@@H](C)CC)C[C@@H]4c4cccc(F)c4)CC3)n(CC)n2)cc1	BaL	-	HeLa	β-galactosidase	50% human serum	EC90	-	0.1 µM
Cn1c2ccccc2c2c1cc(C#N)c(=O)n2-c1ccc([N+](=O)[O-])cc1	NRTI resistant	RT-T69K K70G V75I F77L F116Y Q151M M184V	HeLa	luciferase	-	fold resistance	-	15.7
O=C(O)P(=O)(O)O	IIIB	-	PBL	RT activity	6 d	inhibition	128 µM	99%
CC[C@@H](C)[C@H](C(=O)O)N1C[C@H](CN2CCC(c3cc(Cc4ccc(O)cc4)nn3CC)CC2)[C@@H](c2cccc(F)c2)C1	BaL	-	HeLa	β-galactosidase	-	EC90	-	<0.00014 µM